{"source": "patent US20100292343A1", "about": "“USE OF A DIALKYLKETONE PEROXIDE AS BIOCIDAL, STERILIZING, ANTISEPTIC, DISINFECTING AND ANTI-PARASITIC AGENT” (published 2010)", "key": {"[1]": {"test_system": "Aspergillus niger ATCC 16404", "assay": "Fungicidal activity, EN 1275"}, "[2]": {"test_system": "Candida albicans ATCC 10321", "assay": "Fungicidal activity, EN 1275"}, "[3]": {"test_system": "Enterococcus hirae ATCC 8043", "assay": "Bactericidal activity, EN 1276 dilution-neutralisation"}, "[4]": {"test_system": "Escherichia coli ATCC 10536", "assay": "Bactericidal activity, EN 1276 dilution-neutralisation"}, "[5]": {"test_system": "Pseudomonas aeruginosa ATCC 15442", "assay": "Bactericidal activity, EN 1276 dilution-neutralisation"}, "[6]": {"test_system": "Staphylococcus aureus ATCC 6538", "assay": "Bactericidal activity, EN 1276 dilution-neutralisation"}, "[7]": {"test_system": "Mycobacterium terrae ATCC 15755", "assay": "Mycobactericidal activity, carrier disk ASTM E-2197-02", "conditions": "2% and 4% at 5, 15 and 30 minutes"}}, "note": "Some compounds may have been tested in ways that are not shown here."}
{"substance": "methyl ethyl ketone peroxide", "values": [{"measurement": "Na: number of CFU/ml in the assay mixture", "setting": "[1]; 0.06% (v/v), t = 15 min", "value": "0.2 × 10^2 CFU/ml"}, {"measurement": "Na: number of CFU/ml in the assay mixture", "setting": "[1]; 0.06% (v/v), t = 30 min", "value": "0.6 × 10^2 CFU/ml"}, {"measurement": "Na: number of CFU/ml in the assay mixture", "setting": "[1]; 0.25% (v/v), t = 5 min", "value": 0, "unit": "CFU/ml"}, {"measurement": "fungicidal activity (conclusion)", "setting": "[1]; norm EN 1275", "value": "fungicidal activity"}, {"measurement": "R: Reduction of viability", "setting": "[2]; 0.06% (v/v), t = 30 min", "value": "0.9 × 10^4"}, {"measurement": "R: Reduction of viability", "setting": "[2]; 0.125% (v/v), t = 5 min", "value": "15 × 10^4"}, {"measurement": "Na: number of CFU/ml in the assay mixture", "setting": "[2]; 0.125% (v/v), t = 30 min", "value": 0, "unit": "CFU/ml"}, {"measurement": "Na: number of CFU/ml in the assay mixture", "setting": "[2]; 0.25% (v/v), t = 15 min", "value": 0, "unit": "CFU/ml"}, {"measurement": "Na: number of CFU/ml in the assay mixture", "setting": "[3]; 0.06% (v/v), t = 5 min", "value": "24 × 10^2 CFU/ml"}, {"measurement": "R: Reduction of viability", "setting": "[3]; 0.06% (v/v), t = 5 min", "value": "0.1 × 10^5"}, {"measurement": "R: Reduction of viability", "setting": "[3]; 0.25% (v/v), t = 15 min", "value": "≧10^6"}, {"measurement": "Na: number of CFU/ml in the assay mixture", "setting": "[4]; 0.06% (v/v), t = 15 min", "value": 0, "unit": "CFU/ml"}, {"measurement": "Na: number of CFU/ml in the assay mixture", "setting": "[4]; 0.25% (v/v), t = 5 min", "value": 0, "unit": "CFU/ml"}, {"measurement": "Na: number of CFU/ml in the assay mixture", "setting": "[4]; 0.25% (v/v), t = 30 min", "value": 0, "unit": "CFU/ml"}, {"measurement": "R: Reduction of viability", "setting": "[4]; 0.25% (v/v), t = 30 min", "value": "≧10^6"}, {"measurement": "R: Reduction of viability", "setting": "[5]; 0.06% (v/v), t = 5 min", "value": "24 × 10^5"}, {"measurement": "Na: number of CFU/ml in the assay mixture", "setting": "[5]; 0.125% (v/v), t = 5 min", "value": 0, "unit": "CFU/ml"}, {"measurement": "Na: number of CFU/ml in the assay mixture", "setting": "[5]; 0.25% (v/v), t = 5 min", "value": 0, "unit": "CFU/ml"}, {"measurement": "bactericidal activity (conclusion)", "setting": "[5]; within 5, 15 and 30 minutes at 0.06% in hard water", "value": "bactericidal activity"}, {"measurement": "R: Reduction of viability", "setting": "[6]; 0.06% (v/v), t = 15 min", "value": "0.08 × 10^5"}, {"measurement": "Na: number of CFU/ml in the assay mixture", "setting": "[6]; 0.125% (v/v), t = 5 min", "value": "2.6 × 10^2 CFU/ml"}, {"measurement": "R: Reduction of viability", "setting": "[6]; 0.125% (v/v), t = 30 min", "value": "≧10^6"}, {"measurement": "R: Reduction of viability", "setting": "[6]; 0.25% (v/v), t = 30 min", "value": "≧10^6"}, {"measurement": "mycobactericidal effect (conclusion)", "setting": "[7]", "value": "mycobactericidal effect"}]}
